Values from PubChem BioAssay AID504761 (Drosophila RNAi Screening Center, 2011).
The screen tested about 22,000 reagents; below is an unselected part of those that have a named target and a result. In the full data, 116 (0.52%) got an active call. 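Calls depend on retest data that are not deposited; infection was ranked per plate without normalising between plates; the unit of the infection score is not given.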 A plus sign joins genes that one reagent is predicted to hit. Not all columns of the deposit are shown. The record does not give: the amount of reagent, the time to read-out.

Assay: 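Fly genes whose silencing reduces dengue virus type 2 infection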 (primary screen)
Cell system: D.Mel-2 cells from Drosophila
Reagents: long dsRNA against Drosophila genes
Challenge: infection with dengue virus type 2; dose and infection time not stated
Read-out: 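Per well on two replicate plates, imaging gave the percent of cells positive for viral envelope protein, ranked by infection, and a nuclear count of cells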
Scale: infection score: higher = more virus-infected cells
Rule for the call: 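Very low infection ranking in both replicate wells (chance probability at most 0.065), then a retest showing infection dropped 1.5-fold or more at p below 0.05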
Calls: active = confirmed: knock-down lowers infection; inactive = not picked or not confirmed

infection score, replicate 1, by gene and reagent
GstE5 (GeneID 37110): DRSC06675 1.15 inactive
CG7328 (GeneID 40204): DRSC10812 4.81 inactive
dUTPase (GeneID 34529): DRSC01998 27.2 inactive; DRSC29469 11.7 inactive
CG9877 (GeneID 37666): DRSC04587 9.06 inactive; DRSC25386 25.3 inactive
veg (retired record) (GeneID 44057): DRSC07714 15.7 inactive
Sesn (GeneID 37755): DRSC04101 21.9 inactive; DRSC04102 4.37 inactive; DRSC04103 15.8 inactive
CG10332 (retired record) + IM18: DRSC04064 2.7 inactive
CG11007 (GeneID 37249): DRSC06023 7.72 inactive
CG14300 (GeneID 3346166): DRSC14779 14.6 inactive
Or42a (GeneID 35514): DRSC04912 5.05 inactive
rk (GeneID 34819): DRSC03602 2.88 inactive
Lipt2 (GeneID 40565): DRSC12338 3.8 inactive; DRSC22610 6.86 inactive
CG14669 (GeneID 40652): DRSC12255 9.6 inactive; DRSC26823 10.3 inactive
CG6788 (GeneID 32773): DRSC20007 1.18 inactive; DRSC24906 5.38 inactive
Sms (GeneID 39403): DRSC10408 0.45 inactive
Cwc25 (GeneID 33460): DRSC26038 8.2 inactive
SmF (GeneID 36314): DRSC07397 35.9 inactive; DRSC25054 9.21 inactive
CG5921 (GeneID 31538): DRSC17431 0.39 inactive; DRSC18390 15.4 inactive; DRSC27493 4.21 inactive
CG8850 (GeneID 36331): DRSC07287 32.8 inactive; DRSC25965 2.94 inactive
Con (GeneID 38590): DRSC08652 3.58 inactive
Torsin (GeneID 31399): DRSC18570 11.1 inactive
Neb-cGP (GeneID 50417): DRSC17991 1.21 inactive
Dpy-30L1 (GeneID 34480): DRSC02959 2.9 inactive; DRSC25189 14.2 inactive
Ir7b (GeneID 31690): DRSC18009 4.38 inactive
P5CS (GeneID 40443): DRSC11831 1.69 inactive; DRSC11832 3.71 inactive
Rilpl (GeneID 31090): DRSC18494 2.27 inactive

A run of entries from the list above:
infection score, replicate 1, by gene and reagent
Dpy-30L1 (GeneID 34480): DRSC02959 2.9 inactive; DRSC25189 14.2 inactive
Ir7b (GeneID 31690): DRSC18009 4.38 inactive
